PubChem BioAssay AID1950 (The Scripps Research Institute Molecular Screening Center, 2009)
The entries are a selection whose mix differs from that of the whole data set. Calls of active or inactive are those of the source. No stated cut-off is given here; in the data, active means inhibition above about 28%; inactive means the rest.

The molecules below were run on EBNA-1 (Epstein-Barr virus nuclear antigen 1), Human herpesvirus 4 (assay: blockers of EBV EBNA-1 binding to DNA – biochemical, fluorescence polarization, primary screen (AID 1950)). Conditions: EBNA-1 DNA binding, at 14.8 µM, stronger effect = higher value.

Question: Which inhibition does the source give for `Cc1ccc(C(=O)NCC2(N3CCCCC3)CCCCC2)o1` here?
Answer: inactive: 11.5%

Question: For `Fc1ccccc1NC1CCN(Cc2ccccc2)CC1`, which inhibition is on record?
Answer: inactive: -10.7%

Question: For `COc1cc(OC)cc(C(=O)NCC2(N3CCCCC3)CCCCC2)c1`, which inhibition is on record?
Answer: inactive: 7.27%

Question: With `CN(C)c1ccc(C(=O)NCC2(N3CCCCC3)CCCCC2)cc1` as the molecule, how does the inhibition read?
Answer: inactive: 2.97%

Question: How did the inhibition turn out when `CCN1CCC(Nc2cccc(F)c2)CC1` was run?
Answer: inactive: -5.58%

Question: For `CC(C)(C)OC(=O)N1CCC(Nc2ccccc2)CC1`, which inhibition is on record?
Answer: inactive: -2.21%

Question: With `O=C(O)C1(Nc2ccccc2)CCN(Cc2ccccc2)CC1` as the molecule, how does the inhibition read?
Answer: inactive: -6.22%

Question: How did the inhibition turn out when `CCCOc1ccc(C(=O)NCC2(N(C)C)CCCCC2)cc1` was run?
Answer: inactive: -9.68%

Question: For `CCOc1ncccc1C(=O)NCC1(N2CCOCC2)CCCCC1`, which inhibition is on record?
Answer: inactive: 11.4%

Question: `CN1CCC(Nc2ccc(F)c(Cl)c2)CC1` was tested. Which inhibition did it give?
Answer: inactive: -5.52%

Question: With `CN1CCC(Nc2ccc(Cl)cc2)CC1` as the molecule, how does the inhibition read?
Answer: inactive: 1.31%

Question: `CCCOc1ccc(C)cc1CN(CCCl)CCCl` was tested. Which inhibition did it give?
Answer: inactive: -3.5%

Question: Which inhibition does the source give for `COc1cccc(C(=O)N(c2cc(C)cc(C)c2)C2CCN(C(=O)OC(C)(C)C)CC2)c1` here?
Answer: inactive: -19.4%

Question: For `COc1cc(OC)cc(C(=O)NCC2(N3CCOCC3)CCCCC2)c1`, which inhibition is on record?
Answer: inactive: 6.24%

Question: For `CCC(CO)(C(=O)OC1CN2CCC1CC2)c1ccccc1` (stereo unspecified), which inhibition is on record?
Answer: inactive: -2.96%

Question: How did the inhibition turn out when `COc1ccc(C(=O)NCC2(N3CCOCC3)CCCCC2)cc1OC` was run?
Answer: inactive: -2.88%

Question: How did the inhibition turn out when `O=C(OC1CN2CCC1CC2)C1c2ccccc2C=Cc2ccccc21` (stereo unspecified) was run?
Answer: inactive: -7.61%

Question: `CCc1cc(C(=O)NCC2(N3CCCCC3)CCCCC2)sc1C` was tested. Which inhibition did it give?
Answer: inactive: -0.69%

Question: Which inhibition does the source give for `CCOC(=O)N1CCC(Nc2ccc(C)cc2)CC1` here?
Answer: inactive: 1.59%

Question: `N/C(=N\O)c1c(N)no[n+]1[O-]` was tested. Which inhibition did it give?
Answer: inactive: 0.86%

Question: For `N#Cc1ccc(C(=O)NCC2(N3CCCCC3)CCCCC2)cc1`, which inhibition is on record?
Answer: inactive: -2.78%

Question: With `CC(C)(C)OC(=O)N1CCC(N(C(=O)c2ccccc2)c2ccc(Cl)cc2)CC1` as the molecule, how does the inhibition read?
Answer: inactive: 5.09%

Question: With `CN(C)C1(CNC(=O)c2cccc(C#N)c2)CCCCC1` as the molecule, how does the inhibition read?
Answer: inactive: 4.13%

Question: `c1ccc(CN2CCC(Nc3ccccc3)CC2)cc1` was tested. Which inhibition did it give?
Answer: inactive: -5.38%

Question: How did the inhibition turn out when `CCCN1CCC(Nc2cc(OC)cc(OC)c2)CC1` was run?
Answer: inactive: -8.53%

Question: With `CCN1CCC(Nc2ccc(Cl)cc2)CC1` as the molecule, how does the inhibition read?
Answer: inactive: -0.53%

Question: With `N#CC1(Nc2ccccc2)CCN(CCc2ccccc2)CC1` as the molecule, how does the inhibition read?
Answer: inactive: 0.43%

Question: For `O=C(NCC1(N2CCCCC2)CCCCC1)c1cccc([N+](=O)[O-])c1`, which inhibition is on record?
Answer: inactive: 0.96%

Question: How did the inhibition turn out when `O=C(NCC1(N2CCCCC2)CCCCC1)c1ccc(OC(F)F)cc1` was run?
Answer: inactive: -27%

Question: `O=C(NCC1(N2CCOCC2)CCCCC1)c1cc(=O)[nH]c2ccccc12` was tested. Which inhibition did it give?
Answer: inactive: -6.65%

Question: For `COc1cc(C(=O)NCC2(N3CCCCC3)CCCCC2)ccc1OC(F)F`, which inhibition is on record?
Answer: inactive: -5.14%

Question: For `COc1ccc(NC2CCN(C(=O)OC(C)(C)C)CC2)cc1`, which inhibition is on record?
Answer: inactive: -8.45%

Question: With `CN1CCN(CCOC(=O)C(O)(c2ccccc2)c2ccccc2)CC1` as the molecule, how does the inhibition read?
Answer: inactive: -1.23%

Question: `O=C(NCC1(N2CCCCC2)CCCCC1)c1cccc(C(F)(F)F)c1` was tested. Which inhibition did it give?
Answer: inactive: 6.59%

Question: With `COc1cc(OC)c(C(=O)NCC2(N(C)C)CCCCC2)cc1OC` as the molecule, how does the inhibition read?
Answer: inactive: 2.82%

Question: Which inhibition does the source give for `CC(C)c1ccc(NC2CCN(C(=O)OC(C)(C)C)CC2)cc1` here?
Answer: inactive: 9.09%

Question: Which inhibition does the source give for `COc1ccc(CN(CCCl)CCCl)cc1Cl` here?
Answer: inactive: -6.75%

Question: How did the inhibition turn out when `CN(C)c1cccc(C(=O)NCC2(N3CCCCC3)CCCCC2)c1` was run?
Answer: inactive: -2.38%

Question: With `CN1CCC(Nc2cccc(F)c2)CC1` as the molecule, how does the inhibition read?
Answer: inactive: 6.93%

Question: `CSc1ccccc1C(=O)NCC1(N2CCCCC2)CCCCC1` was tested. Which inhibition did it give?
Answer: inactive: -5.23%

Question: For `COc1ccc(C(=O)NCC2(N3CCCCC3)CCCCC2)cc1`, which inhibition is on record?
Answer: inactive: 4.1%

Question: How did the inhibition turn out when `COc1ccc(C(=O)NCC2(N3CCCCC3)CCCCC2)c(OC)c1OC` was run?
Answer: inactive: 6.12%

Question: How did the inhibition turn out when `CC(C)(C)OC(=O)N1CCC(N(C(=O)c2ccccc2)c2ccc(F)cc2)CC1` was run?
Answer: inactive: -0.07%

Question: Which inhibition does the source give for `O=C(NCC1(N2CCCCC2)CCCCC1)c1ccc(=O)[nH]c1` here?
Answer: inactive: 11.6%

Question: How did the inhibition turn out when `O=C(NCC1(N2CCCCC2)CCCCC1)c1cccs1` was run?
Answer: inactive: 7.85%

Question: For `O=C(OC1CN2CCC1CC2)C1c2ccccc2Oc2ccccc21` (stereo unspecified), which inhibition is on record?
Answer: inactive: 4.36%

Question: `N#CC1(Nc2ccccc2)CCN(Cc2ccccc2)CC1` was tested. Which inhibition did it give?
Answer: inactive: 7.18%

Question: `CCOC(=O)N1CCC(Nc2ccc(OC)cc2)CC1` was tested. Which inhibition did it give?
Answer: inactive: 12.6%

Question: How did the inhibition turn out when `O=C(NCC1(N2CCCCC2)CCCCC1)c1ccc(Cl)nc1` was run?
Answer: inactive: -8.01%

Question: With `Cc1cc(C)cc(N(C(=O)c2ccccc2)C2CCN(C(=O)OC(C)(C)C)CC2)c1` as the molecule, how does the inhibition read?
Answer: inactive: 11.8%

Question: With `O=C(NCC1(N2CCOCC2)CCCCC1)c1cc2ccccc2o1` as the molecule, how does the inhibition read?
Answer: inactive: -6.86%

Question: `O=C(NCC1(N2CCCCC2)CCCCC1)c1ccc(F)cc1` was tested. Which inhibition did it give?
Answer: inactive: -1.05%

Question: With `COc1ccc(NC2CCN(CCc3ccccc3)CC2)c(OC)c1` as the molecule, how does the inhibition read?
Answer: inactive: -9.4%

Question: How did the inhibition turn out when `CCOc1ccc(C)cc1CN(CCCl)CCCl` was run?
Answer: inactive: -2.57%

Question: `CCOC(=O)N1CCC(Nc2cccc(C)c2)CC1` was tested. Which inhibition did it give?
Answer: inactive: -2.89%

Question: `Cc1ccc(OCC(C)C)c(CN(CCCl)CCCl)c1` was tested. Which inhibition did it give?
Answer: inactive: -4.38%
